Pooled drug test results. Numbers come from NIAID ChemDB, via PubChem.

Common to all: whole-cell or culture tests; species: HIV-1; cell line: PBMC; read-out: EC50

ECn: concentration that inhibits the pathogen or its effect by n%. Rows are shuffled and stem from different studies. An empty or dashed field is not shown.

structure,strain or isolate,changes,read by,setting,value
Cc1cn([C@@H]2O[C@H](CO[Si](C)(C)C(C)(C)C)C3(O[C@H]3C(N)=O)[C@H]2O[Si](C)(C)C(C)(C)C)c(=O)[nH]c1=O,LAI,-,RT activity,-,7 µM
Nc1nc(=O)n([C@@H]2O[C@@H](CO)[C@H](O)C2(F)F)cc1F,LAI,-,RT activity,-,>100 µM
OC[C@]1(F)CC[C@H](n2cnc3c(=S)nc[nH]c32)C1,-,-,-,-,>100 µM
NCCNc1nc(-c2ccco2)cc(-c2cc3ccccc3s2)n1,LAV-1,-,RT activity,-,1.9 µM
COC(=O)[C@H](C)NP(=O)(OC[C@@H]1C=C[C@H](n2cc(C)c(=O)[nH]c2=O)O1)Oc1ccc(Cl)cc1,RTMDR,RT M41L L74V T215Y V106N,p24,-,0.062 µM
CCCc1cc(=O)oc2c3c(c4c(c12)OC(C)(C)CC4)O[C@H](C)[C@@H](C)C3=O,ROJO,-,cytopathic effect / XTT,-,2.66 µM
C=CC(C)(/C=C\c1ccc(O)cc1)c1ccc(O)cc1.NC(=O)NO,6363,-,p24,-,0.0005 µM
CCOC(=O)[C@H](C)NP(=O)(OC[C@@H]1OC[C@H](n2cnc3c(NC4CC4)nc(N)nc32)O1)Oc1ccccc1,LAI,-,RT activity,-,0.006 µM
CN(CC(CCN1CCC(CCCc2ccccc2)CC1)c1ccccc1)S(=O)(=O)c1ccc(-c2ccccn2)s1,YU2,-,p24,-,<3.1 µM
N#CC1=C[C@@H](n2ccc(=O)[nH]c2=O)O[C@H]1CO,-,-,-,-,21.7 µM
COC(=O)[C@H](C)NP(=O)(OC[C@@H]1C=C[C@H](n2cc(C)c(=O)[nH]c2=O)O1)Oc1ccc(OC)cc1,IIIB WT,-,p24,-,0.004 µM
CCCc1cc(=O)oc2c3c(c4c(c12)OC(C)(C)C=C4)O[C@H](C)C[C@@H]3O,302143 Clinical isolate,-,p24,-,14.42 µM
CO[C@H]1O[C@@H](n2ccc(=O)[nH]c2=O)C[C@@H]1N=[N+]=[N-],LAV,-,RT activity,-,0.2 µM
N#C[C@@H]1[C@H](O)[C@@H](n2ccc(N)nc2=O)O[C@H]1CO,-,-,-,-,>100 µM
CO[C@H]1C[C@@H]2CC[C@@H](C)[C@@](O)(O2)C(=O)C(=O)N2CCCC[C@H]2C(=O)O[C@H]([C@H](C)C[C@@H]2CC[C@@H](O)[C@H](OC)C2)CC(=O)[C@H](C)/C=C(\C)[C@@H](O)[C@@H](OC)C(=O)[C@H](C)C[C@H](C)/C=C/C=C/C=C/1C,HXB2 X4,-,p24,-,0.001 µM
Cc1cn([C@H]2C[C@H](N=[N+]=[N-])[C@@H](CO)O2)c(=O)[nH]c1=O,MDR 769,-,RT activity,-,>1000 µM
Cc1ccc(NC(=O)CN2CCN(Cc3nc(-c4ccc(F)cc4)no3)CC2)cc1,92BR025,-,RT activity,-,7.8 µM
CCCCCCCCCCCCCCCCCCOCCOP(=O)(O)CO[C@H](CO)Cn1cnc2c(=O)[nH]c(N)nc21,NRTI-MDR,M41L T69SS L74V M184V L210W,p24 / ELISA,-,0.011 µM
CN(C)CCSc1cccc(-c2cc(-c3cccc(SCCN(C)C)c3)ncn2)c1,LAV-1,-,RT activity,-,1.6 µM
CCO[C@@H]1Cc2cc(C(F)(F)F)ccc2C1N1CCN(C2(C)CCN(C(=O)c3c(C)ncnc3C)CC2)C[C@@H]1C,WPS-5,-,p24,-,>1 µM
N#C[C@@H]1[C@H](O)[C@@H](n2cnc3c(N)ncnc32)O[C@H]1CO,-,-,-,-,74.8 µM
CC1(C)CCC2=C(O1)c1ccccc1C(=O)C2=O,IIIB,-,p24,-,~0.5 µM
C=C1CN(S(=O)(=O)c2ccc(C)cc2)CCCN(Cc2ccccc2)CCCN(S(=O)(=O)c2ccc(C)cc2)C1,NL4-3,-,cytopathic effect,-,1.6 µM
CN(CC(CCN1CCC(CCCc2ccccc2)CC1)c1ccccc1)S(=O)(=O)c1cccs1,YU2,-,p24,-,>10 µM
CC(C)(CS(=O)(=O)[O-])[NH2+]C(=O)C(CC(F)(OC(F)(F)C(F)(OC(F)(F)C(F)(OC(F)(F)C(F)(F)C(F)(F)F)C(F)(F)F)C(F)(F)F)C(F)(F)F)C(F)(OC(F)(F)C(F)(OC(F)(F)C(F)(OC(F)(F)C(F)(F)C(F)(F)F)C(F)(F)F)C(F)(F)F)C(F)(F)F,IIIB,-,p24,-,7.7 µg/mL
CN1CCN(CCSc2nc(-c3ccccc3)c3ccccc3n2)CC1,LAV-1,-,RT activity,-,22.4 µM
N#CC1=C[C@@H](n2ccc(N)nc2=O)O[C@H]1CO,-,-,-,-,>100 µM
CCCCCCCCCCCCCCCCCCOCCOP(=O)(O)CO[C@H](CO)Cn1cnc2c(N)ncnc21,LAI,-,p24 / ELISA,-,0.01 µM
O=C(O)CCC(CCC(=O)O)(CCC(=O)O)NC(=O)CCC(CCC(=O)NC(CCC(=O)O)(CCC(=O)O)CCC(=O)O)(CCC(=O)NC(CCC(=O)O)(CCC(=O)O)CCC(=O)O)NC(=O)CCCOC(=O)C1(C(=O)OCCCC(=O)NC(CCC(=O)NC(CCC(=O)O)(CCC(=O)O)CCC(=O)O)(CCC(=O)NC(CCC(=O)O)(CCC(=O)O)CCC(=O)O)CCC(=O)NC(CCC(=O)O)(CCC(=O)O)CCC(=O)O)C2c3cc4c5c6c3-c3c(cc7c8c3C6C3c6c-5c(cc5ccc9cc(c-8c3c9c65)C7)C4)C21,-,3TC-resistant (RT M184V),cytopathic effect,-,0.052 µM
Nc1nc(NC2CC2)c2ncn([C@H]3C=C[C@@H](CO)C3)c2n1,SBH Clinical isolate,-,p24,-,>0.25 µM
CN(C)CCSc1ccc(-c2cc(-c3ccc(SCCN(C)C)cc3)ncn2)cc1,LAV-1,-,RT activity,-,3.6 µM
O=c1ccn([C@H]2O[C@@H](CO)[C@H](O)C2(F)F)c(=O)[nH]1,LAI,-,RT activity,-,>100 µM
Nc1nc(N)c2ncn([C@H]3CO[C@@H](CO)O3)c2n1,LAI,-,RT activity,-,0.4 µM
Nc1nc2c(ncn2[C@H]2O[C@@H](CO)[C@H](O)C2(F)F)c(=O)[nH]1,LAI,-,RT activity,-,>100 µM
OCCC#Cc1nc(-c2ccc(F)cc2)c(-c2ccncc2)n1CCCc1ccccc1,AZT-resistant A012 Clinical isolate,-,p24,-,<1 µM
OCCN(CCO)c1nc(-c2cccs2)cc(-c2cc3ccccc3s2)n1,LAV-1,-,RT activity,-,60 µM
COc1nc(N)nc2c1ncn2[C@H]1CO[C@@H](CO)O1,LAI,-,RT activity,-,0.8 µM
Cc1cn([C@H]2O[C@@H](CO)[C@H](C#N)[C@@H]2O)c(=O)[nH]c1=O,-,-,-,-,>100 µM
O=c1[nH]c(=O)n([C@@H]2O[C@@H](CO)[C@H](O)C2(F)F)cc1I,LAI,-,RT activity,-,>100 µM
Cc1cn([C@H]2CC[C@@](F)(CO)C2)c(=O)[nH]c1=O,-,-,-,-,>100 µM
C=CCN(C(=O)OCc1ccc([N+](=O)[O-])cc1)C1CCN(C[C@H]2CN(C(=O)C3CCCC3)C[C@]2(O)c2ccccc2)CC1,HNz2 R5 CLADE B,-,p24,-,0.0047 µM
Nc1nc(=O)n([C@H]2O[C@@H](CO)[C@H](O)C2(F)F)cc1F,LAI,-,RT activity,-,>100 µM
COC(=O)[C@H](C)NP(=O)(OC[C@@H]1C=C[C@H](n2cc(C)c(=O)[nH]c2=O)O1)Oc1ccc(Br)cc1Cl,RTMDR,RT M41L L74V T215Y V106N,p24,-,0.234 µM
N#CC1=C[C@@H](n2cnc3c(N)ncnc32)O[C@H]1CO,-,-,-,-,67.4 µM
Nc1nc(=O)n([C@H]2C=C[C@@H](CO)O2)cc1F,BRU-184V,RT-M184V,RT activity,-,<0.15 µM
CN(C)CCCNC(=O)CCNC(=O)c1cc(NC(=O)c2nc(NC(=O)CCNC(=O)c3cc(NC(=O)c4nc(NC(=O)CCCNC(=O)c5cc(NC(=O)c6nc(NC(=O)CCNC(=O)c7cc(NC(=O)c8nccn8C)cn7C)cn6C)cn5C)cn4C)cn3C)cn2C)cn1C,WEAU 1.6,-,p24,-,<1 µM
CN(C)CCSc1ccc(-c2ccc(-c3ccc(SCCN(C)C)cc3)nn2)cc1,LAV-1,-,RT activity,-,5.8 µM
O=c1[nH]c(=O)n([C@@H]2O[C@@H](CO)[C@H](O)C2(F)F)cc1Cl,LAI,-,RT activity,-,>100 µM
Nc1ncnc2c1ncn2[C@H]1CC[C@@](F)(CO)C1,-,-,-,-,27.6 µM
CN(C)CCSc1cccc(-c2cc(-c3cccs3)nc(SCCN(C)C)n2)c1,LAV-1,-,RT activity,-,0.8 µM
O=C1Nc2cc(Cc3ncncc3F)ccc2[C@@](C#CC2CC2)(C(F)(F)F)N1,-,-,GFP,pseudotyped,0.0214 µM

Repeating the final 7 entries:

structure | strain or isolate | changes | read by | setting | value
Nc1nc(=O)n([C@H]2C=C[C@@H](CO)O2)cc1F | BRU-184V | RT-M184V | RT activity | - | <0.15 µM
CN(C)CCCNC(=O)CCNC(=O)c1cc(NC(=O)c2nc(NC(=O)CCNC(=O)c3cc(NC(=O)c4nc(NC(=O)CCCNC(=O)c5cc(NC(=O)c6nc(NC(=O)CCNC(=O)c7cc(NC(=O)c8nccn8C)cn7C)cn6C)cn5C)cn4C)cn3C)cn2C)cn1C | WEAU 1.6 | - | p24 | - | <1 µM
CN(C)CCSc1ccc(-c2ccc(-c3ccc(SCCN(C)C)cc3)nn2)cc1 | LAV-1 | - | RT activity | - | 5.8 µM
O=c1[nH]c(=O)n([C@@H]2O[C@@H](CO)[C@H](O)C2(F)F)cc1Cl | LAI | - | RT activity | - | >100 µM
Nc1ncnc2c1ncn2[C@H]1CC[C@@](F)(CO)C1 | - | - | - | - | 27.6 µM
CN(C)CCSc1cccc(-c2cc(-c3cccs3)nc(SCCN(C)C)n2)c1 | LAV-1 | - | RT activity | - | 0.8 µM
O=C1Nc2cc(Cc3ncncc3F)ccc2[C@@](C#CC2CC2)(C(F)(F)F)N1 | - | - | GFP | pseudotyped | 0.0214 µM